Kdimer by position in the HIV-1 leader RNA

The measurements come from Ye et al. 2022 (doi:10.1038/s41594-022-00746-2).

Sequence of the HIV-1 NL4-3 5' RNA, positions 1 to 437, as numbered in the source:
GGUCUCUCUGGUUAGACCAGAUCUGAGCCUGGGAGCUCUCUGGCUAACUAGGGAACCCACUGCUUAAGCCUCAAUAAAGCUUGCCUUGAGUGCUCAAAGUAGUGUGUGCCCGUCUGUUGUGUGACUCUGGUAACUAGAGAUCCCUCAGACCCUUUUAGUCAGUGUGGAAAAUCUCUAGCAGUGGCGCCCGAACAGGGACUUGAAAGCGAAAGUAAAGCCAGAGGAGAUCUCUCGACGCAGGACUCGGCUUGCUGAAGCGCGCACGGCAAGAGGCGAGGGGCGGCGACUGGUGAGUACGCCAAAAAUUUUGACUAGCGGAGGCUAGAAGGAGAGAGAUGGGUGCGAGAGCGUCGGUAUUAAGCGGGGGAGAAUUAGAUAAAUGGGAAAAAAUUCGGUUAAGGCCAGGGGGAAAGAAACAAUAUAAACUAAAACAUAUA

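Mutant RNA libraries with 1G, 2G or 3G starts, with or without cap, were folded at 37 °C for 30 min. Monomer and dimer bands were cut from native gels after folding in high salt (300 mM KCl, 5 mM MgCl2) or low salt (40 mM KCl, 0.1 mM MgCl2). Mutation frequencies in the two bands give Kdimer.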

Values are log2 Kdimer, the median over the changes at each position: higher means that changes there hinder dimer formation, below 0 that they favour it. One numbering serves 1G, 2G and 3G. A position is written with its base where known.

| position | domain | 2G capped low-salt | 3G capped low-salt |
|---|---|---|---|
| G43 | TAR | -0.02 | -0.08 |
| G280 | none | -0.59 | -0.43 |
| G294 | SL2 | -0.80 | -0.82 |
| 483 | none | -0.20 | -0.09 |
| C252 | SL1 | 3.02 | 3.57 |
| U295 | SL2 | -0.70 | -0.52 |
| G333 | AUG | -0.24 | -0.19 |
| A327 | none | 0.19 | 0.10 |
| C111 | U5 | 0.40 | 1.26 |
| C179 | PBS | -0.50 | -0.27 |
| U103 | PolyA | 0.24 | 0.27 |
| U82 | PolyA | 0.26 | 0.18 |
| G369 | none | 0.11 | 0.08 |
| G259 | SL1 | 3.18 | 3.63 |
| U323 | SL3 | 0.63 | -0.04 |
| U165 | PBS | -0.08 | 0.14 |
| G289 | SL2 | 0.09 | 0.23 |
| A133 | PBS | 0.28 | 0.09 |
| A101 | PolyA | 0.35 | 0.13 |
| G33 | TAR | -0.18 | 0.07 |
| 513 | none | -0.11 | 0.02 |
| 465 | none | 0.07 | -0.07 |
| U118 | none | -0.06 | -0.01 |
| A276 | SL1 | 2.67 | 2.97 |
| A293 | SL2 | -0.35 | -0.49 |
| A177 | PBS | -0.47 | -0.71 |
| A359 | none | -0.01 | -0.03 |
| 508 | none | 0.06 | 0.02 |
| 464 | none | 0.08 | 0.04 |
| C58 | PolyA | 0.54 | 0.20 |
| 487 | none | 0.04 | 0.15 |
| G331 | none | -0.19 | 0.09 |
| A431 | none | -0.03 | 0.05 |
| A324 | SL3 | 0.86 | 0.79 |
| U155 | PBS | 0.06 | -0.03 |
| A89 | PolyA | 0.38 | 0.23 |
| A239 | none | -0.31 | -0.34 |
| 479 | none | -0.06 | -0.15 |
| C219 | antiPAS | -0.30 | 0.86 |
| U107 | U5 | 0.49 | 0.78 |
| A211 | PBS | -0.49 | -0.25 |
| C93 | PolyA | -0.10 | -0.25 |
| 445 | none | 0.10 | 0.19 |
| C72 | PolyA | 0.09 | -0.10 |
| G406 | none | -0.20 | -0.03 |
| A304 | none | 0.00 | -0.01 |
| C300 | none | -0.31 | -0.33 |
| U249 | SL1 | 1.77 | 1.85 |
| U392 | none | -0.03 | 0.20 |
| 486 | none | 0.04 | 0.14 |
| G318 | SL3 | -0.05 | -0.14 |
| U337 | AUG | 0.10 | 0.06 |
| 452 | none | 0.03 | 0.12 |
| U341 | AUG | 0.23 | 0.65 |
| C236 | none | 1.52 | 1.94 |
| 490 | none | -0.05 | 0.04 |
| A169 | PBS | 0.02 | 0.00 |
| U250 | SL1 | 2.73 | 2.93 |
| A255 | SL1 | -0.32 | -0.40 |
| U436 | none | -0.10 | -0.14 |
| A140 | PBS | 0.20 | 0.25 |
| A296 | SL2 | 0.16 | 0.27 |
| U87 | PolyA | 0.15 | -0.19 |
| A433 | none | 0.02 | 0.09 |
| U94 | PolyA | 0.41 | 0.07 |
| 494 | none | 0.13 | -0.02 |
| U64 | PolyA | 0.16 | -0.12 |
| U172 | PBS | 0.36 | 0.48 |
| A414 | none | -0.08 | 0.02 |
| U45 | TAR | -0.25 | -0.12 |
| U156 | PBS | -0.17 | -0.26 |
| 463 | none | 0.14 | 0.07 |
| G112 | U5 | -0.12 | 0.62 |
| G221 | antiPAS | 0.08 | 0.30 |
| G202 | PBS | -0.27 | -0.22 |

The source gives no letters past position 437.